Pooled drug test results. Numbers come from NIAID ChemDB, via PubChem.

Shared fields: toxicity to cultured cells; cells: E6SM; read-out: CC50

Two numbers with a dash give a range or band. CCn is the concentration with n% toxicity to the cells. Rows are shuffled and stem from different studies.

| smiles | result |
|---|---|
| O=c1[nH]c(=O)n([C@@H]2CO[C@H](CO)[C@@H](O)C2)cc1C(F)(F)F | >400 µg/mL |
| COC(=O)C(C)(C)NP(=O)(OC[C@H]1O[C@@H](n2cc(/C=C/Br)c(=O)[nH]c2=O)C[C@@H]1O)Oc1ccccc1 | >400 µM |
| CCC(Sc1ncnc2c1cnn2COCCO)C(N)=O | >400 µg/mL |
| NNC(=O)Cc1nc2n(n1)CCCCC2 | >400 µg/mL |
| CO[C@H](CO)[C@@H](O)CCn1ccc(N)nc1=O | >400 µg/mL |
| Cc1nc(CC(=O)NN)nn1C | >400 µg/mL |
| NC(=O)CSc1ncnc2c1cnn2COCC(O)CO | >400 µg/mL |
| Nc1nc2c(ncn2CC[C@H](O)CCO)c(=O)[nH]1 | >400 µg/mL |
| NC1CSCCN2CCc3c([nH]c4ccccc34)[C@H]12 | 100 µg/mL |
| CC(C)CS[C@@H]1C[C@H](n2cnc3c(N)ncnc32)[C@@H](O)[C@H]1O | 80–400 µg/mL |
| Nc1nc2c(ncn2COC(CO)CO)c(=O)[nH]1 | >100 µg/mL |
| OC[C@H]1CC(n2cnc3c(NC4CC4)ncnc32)C[C@@H]1CO | >200 µg/mL |
| CO[C@H](CO)[C@@H](O)CCn1cc(C)c(=O)[nH]c1=O | >400 µg/mL |
| CC1(C)[C@@H](CO)CC[C@@]1(C)Cn1nnc2c(=O)[nH]cnc21 | >400 µg/mL |
| CC#Cc1cn([C@@H]2CO[C@H](CO)[C@@H](O)C2)c(=O)[nH]c1=O | >400 µg/mL |
| CC1(C)[C@@H](CO)CC[C@@]1(C)Cn1cnc2c(Cl)ncnc21 | >400 µg/mL |
| O=c1[nH]c(=O)n([C@H]2C[C@H](O)[C@@H](CO)O2)cc1/C=C/Br | ≥400 µg/mL |
| CCc1nc(CC(=O)NN=C(C)C)nn1CC | >400 µg/mL |
| CC(Sc1ncnc2c1cnn2COCCO)C(N)=O | >400 µg/mL |
| CCSC1NN=C(Cc2nc(C)n(C)n2)N1c1ccccc1 | 400 µg/mL |
| CO[C@H](CO)[C@@H](O)CCn1cnc2c(N)ncnc21 | >400 µg/mL |
| Nc1ncnc2c1ncn2C1C[C@H](CO)[C@@H](CO)C1 | >200 µg/mL |
| CC1(C)[C@@H](CO)CC[C@@]1(C)Cn1cc(Br)c(=O)[nH]c1=O | >400 µg/mL |
| Nc1ncnc2c1ncn2[C@@H]1C[C@@H](O)[C@@H](O)[C@H]1O | >400 µg/mL |
| O=c1[nH]c(=O)n([C@H]2C[C@H](O)[C@@H](CO)O2)cc1/C=C/Br | >400 µM |
| CCn1nc(-c2ccc(Cn3ccc4ccccc43)cc2)nc1C | 400 µg/mL |

2 of the rows above, restated:

CC1(C)[C@@H](CO)CC[C@@]1(C)Cn1nnc2c(=O)[nH]cnc21 ; result: >400 µg/mL
NC(=O)CSc1ncnc2c1cnn2COCC(O)CO ; result: >400 µg/mL